Pooled drug test results. Numbers come from NIAID ChemDB, via PubChem.

Shared fields: tests in culture; organism: HIV-1; cell line: PBMC; measure: EC50

Blank or dashed fields: not listed here. ECn: concentration that inhibits the pathogen or its effect by n%. Rows are shuffled and stem from different studies. a–b is a range or a potency band.

SMILES,strain or isolate,changes,read by,value
O=c1ccn(Cc2ccccc2)c(=O)[nH]1,IIIB,,,>351 µM
CC1=CC(=O)[C@@H](O)[C@]2(C)[C@H]3[C@@]4(O)OC[C@@]35[C@@H](C[C@@H]12)OC(=O)C[C@H]5[C@@H](C)[C@H]4O,,,p24,0.027 µM
Fc1ccccc1CCNC(=S)Nc1ccc(Br)cn1,RT-Y181C A17 NNRTI-resistant,,p24,0.33 µM
C#C[C@@]1(CO)C=C[C@H](n2cc(C)c(=O)[nH]c2=O)O1,BaL,,p24,0.0076 µM
Cc1cn([C@@H]2O[C@H](CO)C=C2F)c(=O)nc1N,LAV,,RT activity,>100 µM
Cc1c(O)cccc1C(=O)N[C@@H](CSc1ccccc1)[C@H](O)CN1C[C@H]2CCCC[C@H]2C[C@H]1C(=O)NC(C)(C)C,MM,MDR,p24,>1 µM
CCCc1cc(=O)oc2c3c(c4c(c12)OC(C)(C)C=C4)O[C@H](C)[C@@H](C)[C@@H]3O,IIIB,,cytopathic effect / XTT,0.22 µM
N#CCn1ccc(=O)n(Cc2cc(Cl)cc(Cl)c2)c1=O,IIIB,,,0.77 µM
CC#CCN1C(=O)[C@H]([C@@H](O)C2CCCCC2)NC(=O)C12CCN(Cc1c(C)nn(-c3ccccc3)c1C)CC2,JR-FL R5,,p24,0.013 µM
Cc1cn([C@H]2C=C[C@@H](CO)O2)c(=O)[nH]c1=O,006,,p24,0.36 µM
CC(C)CN(C[C@@H](O)[C@H](Cc1ccccc1)NC(=O)O[C@H]1CCOC1)S(=O)(=O)c1ccc(N)cc1,006,,p24,0.0543 µM
Cc1cn([C@H]2C[C@H](N=[N+]=[N-])[C@@H](CO)O2)c(=O)[nH]c1=O,BaL,,p24,0.004 µM
C[C@H]1/C=C/[C@@]2(C)CC[C@@H](C(C)(C)O)[C@@H]2[C@@H](O)C[C@](C)(O)/C=C/C1,95BRRJ010 X4,,p24,<25 µM
Cc1cn([C@H]2C=C[C@@H](CO)O2)c(=O)[nH]c1=O,IIIB,,p24,0.019 µM
Cc1cn([C@H]2C[C@H](N=[N+]=[N-])[C@@H](COC(=O)C(=O)N[C@H](C(=O)O)C(C)C)O2)c(=O)[nH]c1=O,,,,0.015 µg/mL
S=C(NCCc1cccs1)Nc1ccc(Br)cn1,A17 RT-Y181C NNRTI-resistant,,p24,0.77 µM
Nc1ccn([C@@H]2C=C[C@H](CO)O2)c(=O)n1,LAV,,RT activity,1 µM
c1cc(CN2CCCNCCNCCCNCC2)ccc1CN1CCCNCCNCCCNCC1,TM,MDR,p24,0.008 µM
CN(C[C@@H](CCN1CCC(CCCc2ccccc2)CC1)c1cccc(Cl)c1)S(=O)(=O)c1ccccc1,YU-2 (M-tropic),,p24,<12.5 µM
Cc1cn([C@H]2C[C@H](N=[N+]=[N-])[C@@H](CO)O2)c(=O)[nH]c1=O,IIIB,,cytopathic effect / XTT,0.022 µM
CCCN(C(=O)NCc1ccccc1)C1CCN(CCC(CN(C)S(=O)(=O)c2ccccc2)c2ccccc2)CC1,YU-2 (M-tropic),,p24,<3 µM
Nc1nc(=O)n([C@H]2CS[C@@H](CO)O2)cc1[N+](=O)[O-],LAV,,RT activity,>100 µM
CCCCN1C(=O)C(CC2CCCCC2)NC(=O)C12CCN(Cc1ccc3c(c1)OCCO3)CC2,BaL,,p24,0.04 µM
CC(C)(C)OC(=O)N[C@@H](Cc1ccccc1)[C@H](O)CNC[C@@H](O)[C@H](Cc1ccc(OCC(=O)N2CCOCC2)cc1)NC(=O)OC(C)(C)C,006,,p24,0.038 µM
COC(=O)N[C@H](C(=O)N[C@@H](Cc1ccccc1)[C@@H](O)CN(Cc1ccc(-c2ccccn2)cc1)NC(=O)[C@@H](NC(=O)OC)C(C)(C)C)C(C)(C)C,006,,p24,0.00262 µM
CN(C(=O)OCc1ccccc1)C1CCN(CCC(CN(C)S(=O)(=O)c2ccccc2)c2ccccc2)CC1,YU-2 (M-tropic),,p24,<12.5 µM
O=C(CO)N[C@@H]([C@@H](O)[C@H](O)[C@H](O)CO)[C@@H](O)C(=O)C(=O)O,MN,,p24,<6.2 µg/mL
Nc1ncnc2c1ncn2[C@@H]1C[C@@H](F)[C@H](CO)O1,LAV,,RT activity,>100 µM
Cc1ccc(C)c(Cn2c(=O)ccn(CC#N)c2=O)c1,IIIB,,,24.5 µM
Cc1ccc(-c2c3nc(c(-c4ccc(C)cc4)c4ccc([nH]4)c(-c4ccc(C)cc4)c4nc(c(-c5ccc(C)cc5)c5ccc2[nH]5)C=C4)C=C3)cc1,LAV,,RT activity,0.754–10 µM
Cc1cn([C@H]2C[C@H](N=[N+]=[N-])[C@@H](CO)O2)c(=O)[nH]c1=O,IIIB,,RT activity,0.001–0.002 µM
Nc1ccn([C@@H]2S[C@H](CO)C=C2F)c(=O)n1,xxBRU,,,<5 µM
Cc1cc(C)nc(Cn2c(=O)ccn(Cc3c(F)cccc3F)c2=O)c1,IIIB,,,6.4 µM
Nc1ncnc2c1ncn2C1OC(CO)C=C1F,LAV,,RT activity,1.5 µM
O=c1ccn(Cc2ccccc2)c(=O)n1Cc1ccccc1,IIIB,,,11.1 µM
Nc1ncnc2c1ncn2[C@@H]1O[C@@H](CO)C=C1F,LAV,,RT activity,47.6 µM
N#CCn1ccc(=O)n(Cc2cc(F)cc(F)c2)c1=O,IIIB,,,13.5 µM
CC(C)(C)NC(=O)C1N(C(=O)[C@@H](O)[C@H](Cc2ccccc2)NC(=O)[C@H](CS(C)(=O)=O)NC(=O)COc2cccc3ccccc23)CSC1(C)C,Clinical isolates,,p24,0.03 µM
Cc1ccc(CCNC(=S)Nc2ccc(Br)cn2)cc1,IIIB,,p24,0.007 µM
Nc1ccn([C@H]2CC[C@@H](CO)O2)c(=O)n1,BCF02,RT-A98G V106I Y181C,,0.03 µM
c1cc(CN2CCCNCCNCCCNCC2)ccc1CN1CCCNCCNCCCNCC1,RF,,p24,0.005 µg/mL
Cc1cn([C@H]2C[C@H](N=[N+]=[N-])[C@@H](CO)O2)c(=O)[nH]c1=O,,,,0.02 µg/mL
Cc1cc(=O)c2ccc(N=C=S)cc2o1,ADA,,p24 / ELISA,0.157 µM
O=C(O)P(=O)(O)O,7932 CLADE B CLADE B,,p24,4.93 µM
CCO/N=C(\c1ccc(Br)cc1)C1CCN(C2(C)CCN(C(=O)c3c(C)cc[n+]([O-])c3C)CC2)CC1,JR-FL R5,,p24,0.002 µM
N#CCn1ccc(=O)n(Cc2ccc(-c3ccccc3)cc2)c1=O,IIIB,,,58 µM
Nc1nc(=O)n([C@@H]2C=C[C@H](CO)O2)cc1F,LAV,,RT activity,0.034 µM
c1ccc2c(c1)sc1nccn12,IIIB,,cytopathic effect / XTT,0.83 µM
CSC[C@H](NC(=O)COc1cccc2cnccc12)C(=O)N[C@@H](Cc1ccccc1)[C@H](O)C(=O)N1CSC(C)(C)[C@H]1C(=O)NC(C)(C)C,Clinical isolates,,p24,0.01 µM
CC[C@H](C)[C@H]1NC(=O)[C@@H](NC(=O)[C@@H](C)N(C)C(=O)[C@@H]2CCCN2C(=O)C(C)=O)[C@@H](C)OC(=O)[C@H](Cc2ccc(OC)cc2)N(C)C(=O)[C@@H]2CCCN2C(=O)[C@H](CC(C)C)NC(=O)[C@@H](C)C(=O)[C@H](C(C)C)OC(=O)C[C@@H]1O,NL4-3,,luciferase,0.35 µM
Cc1cc(Cn2c(=O)ccn(Cc3c(F)cccc3F)c2=O)cc(C)n1,IIIB,,,130 µM
CC(C)(C)C(=O)c1sc(C(=O)NCc2ccccc2)c(O)c1O,D34 X4,,p24,0.4 µM
Cc1cn([C@H]2C[C@H](N=[N+]=[N-])[C@@H](CO)O2)c(=O)[nH]c1=O,006,,p24,0.009 µM
Cc1ccnc2c1NC(=O)c1cccnc1N2C1CC1,LAI,,,<0.01 µM
CCCN(C(=O)Nc1ccccc1)C1CCN(CCC(CN(C)S(=O)(=O)c2ccccc2)c2ccccc2)CC1,YU-2 (M-tropic),,p24,<6 µM
Cc1cn([C@H]2C[C@H](N=[N+]=[N-])[C@@H](CO)O2)c(=O)[nH]c1=O,B101990,,p24,1 µM
Nc1ccn([C@@H]2CO[C@H](CO)S2)c(=O)n1,CCR20,,p24,1.1 µM
CC[C@H](C)[C@H]1NC(=O)[C@@H](NC(=O)[C@@H](CC(C)C)N(C)S(=O)(=O)c2ccc(C)cc2)[C@@H](C)OC(=O)[C@H](Cc2ccc(OC)cc2)N(C)C(=O)[C@@H]2CCCN2C(=O)[C@H](CC(C)C)NC(=O)[C@H](C(C)C)OC(=O)C[C@@H]1O,NL4-3,Delta-env-VSV-Luc,luciferase,0.014 µM
C[n+]1ccc(-c2c3nc(c(-c4cc[n+](C)cc4)c4ccc([nH]4)c(-c4cc[n+](C)cc4)c4nc(c(-c5cc[n+](C)cc5)c5ccc2[nH]5)C=C4)C=C3)cc1,LAV,,RT activity,0.66–3.23 µM
CCCCN1C(=O)[C@@H]([C@H](O)C2CCCCC2)NC(=O)C12CCN(Cc1ccc(Oc3ccc(C(=O)O)cc3)cc1)CC2,BAL R5,,p24,0.0004 µM
CC(=O)SCCOP(=O)(OCCSC(C)=O)OC[C@@H]1CC[C@H](n2cnc3c(N)ncnc32)O1,,,,0.00023 µM

Repeating the final 4 entries:

SMILES	strain or isolate	changes	read by	value
CC[C@H](C)[C@H]1NC(=O)[C@@H](NC(=O)[C@@H](CC(C)C)N(C)S(=O)(=O)c2ccc(C)cc2)[C@@H](C)OC(=O)[C@H](Cc2ccc(OC)cc2)N(C)C(=O)[C@@H]2CCCN2C(=O)[C@H](CC(C)C)NC(=O)[C@H](C(C)C)OC(=O)C[C@@H]1O	NL4-3	Delta-env-VSV-Luc	luciferase	0.014 µM
C[n+]1ccc(-c2c3nc(c(-c4cc[n+](C)cc4)c4ccc([nH]4)c(-c4cc[n+](C)cc4)c4nc(c(-c5cc[n+](C)cc5)c5ccc2[nH]5)C=C4)C=C3)cc1	LAV		RT activity	0.66–3.23 µM
CCCCN1C(=O)[C@@H]([C@H](O)C2CCCCC2)NC(=O)C12CCN(Cc1ccc(Oc3ccc(C(=O)O)cc3)cc1)CC2	BAL R5		p24	0.0004 µM
CC(=O)SCCOP(=O)(OCCSC(C)=O)OC[C@@H]1CC[C@H](n2cnc3c(N)ncnc32)O1				0.00023 µM